In patent publication US20140302217A1, “PRESERVATIVE COMBINATIONS COMPRISING PROPIONIC ACID AND VANILLIN AND/OR CINNAMIC ACID” (Purac Biochem B.V., priority 2011, published 2014):

Test: sensory / taste experiments

CCC(=O)O [propionate, Propionic acid]
maximum acceptable amount (sensory tests) (in model drinks): approximately 630 ppm
max acceptable amount (sensory experiments) (in water): 630 ppm
